Literature values in paper PMC11599114 (Viruses, 2024).

Columns and labels:
A/Parma0/5/06 H3N2 = tested on: A/Parma0/5/06 H3N2; parameters: method as in 2 sources; conditions: A/Parma0/5/06 H3N2, MDCK
A/Parma/24/09 H1N1 = tested on: A/Parma/24/09 H1N1; parameters: method as in 2 sources; conditions: A/Parma/24/09 H1N1, MDCK
SARS-CoV-2 = tested on: SARS-CoV-2; parameters: method as in ref 35216177; conditions: SARS-CoV-2, Vero
[1] = tested on: influenza virus(H1N1,VR-1894); parameters: method as in ref 35216177; conditions: H1N1 VR-1894, MDKC
A/Roma-ISS/02/08 H1N1 = tested on: A/Roma-ISS/02/08 H1N1; parameters: method as in 2 sources; conditions: A/Roma-ISS/02/08 H1N1, MDCK

In the case of SLDCVLRP [DRAVPe01647], the EC50 (A/Parma0/5/06 H3N2) is given as 0.3 ± 0.0002 nM and the EC50 (A/Parma/24/09 H1N1) is given as 0.0025 ± 0.00037 nM.
In the case of CFVPWFSKFlXRIL [DRAVPe00391], the IC50 (SARS-CoV-2) is listed as 760 nM and the IC50 [1] is listed as 2550 nM.
In the case of FVPWFSKFlGRIL [DRAVPe00377], the IC50 (SARS-CoV-2) is listed as 4620 nM.
In the case of SKHS [DRAVPe01651], the EC50 (A/Parma0/5/06 H3N2) is listed as 0.005 ± 2e-05 nM and the EC50 (A/Roma-ISS/02/08 H1N1) is listed as 0.003 ± 0.00061 nM.
For SKHSSLDC [DRAVPe01649], the EC50 (A/Parma0/5/06 H3N2) is given as 0.005 ± 0.00045 nM and the EC50 (A/Roma-ISS/02/08 H1N1) is given as 0.08 ± 0.00019 nM.
For VLRP [DRAVPe01648], the EC50 (A/Parma0/5/06 H3N2) is listed as 0.25 ± 0.00042 nM and the EC50 (A/Parma/24/09 H1N1) is listed as 0.001 ± 5e-05 nM.
For FVPWFSKFlXRILC [DRAVPe00389], the IC50 (SARS-CoV-2) is given as 3180 nM and the IC50 [1] is given as 5550 nM.
For FVPWFSKFlXRILGGC [DRAVPe00390], the IC50 (SARS-CoV-2) is given as 12100 nM and the IC50 [1] is given as 21100 nM.
In the case of FVPWFSKFlxRIL [DRAVPe00382], the IC50 (SARS-CoV-2) is given as 1000 nM.
In the case of FVPWFSKFlWRIL [DRAVPe00385], the IC50 (SARS-CoV-2) is listed as 880 nM.
For FVPWFSKFlKRIL [DRAVPe00383], the IC50 (SARS-CoV-2) is listed as 880 nM.
For FVPWFSKFlpRIL [DRAVPe00379], the IC50 (SARS-CoV-2) is given as greater than 50000 nM and the IC90 (SARS-CoV-2) is given as greater than 50000 nM.
For FVPWFSKFlPRIL [DRAVPe00378], the IC50 (SARS-CoV-2) is listed as 4820 nM.
For CGGFVPWFSKFlXRIL [DRAVPe00392], the IC50 (SARS-CoV-2) is given as 1020 nM and the IC50 [1] is given as 6020 nM.
In the case of FVPWFSKFlwRIL [DRAVPe00386], the IC50 (SARS-CoV-2) is listed as 4070 nM.
In the case of FVPWFSKFlkRIL [DRAVPe00384], the IC50 (SARS-CoV-2) is given as 4630 nM.
For SLDC [DRAVPe01650], the EC50 (A/Parma0/5/06 H3N2) is listed as 0.0043 ± 3e-05 nM and the EC50 (A/Parma/24/09 H1N1) is listed as 0.0046 ± 5e-05 nM.
For FVPWFSKFlXRIL [DRAVPe00380], the IC50 (SARS-CoV-2) is listed as 6720 nM.
In the case of KSETKN [DRAVPe01646], the EC50 (A/Parma0/5/06 H3N2) is listed as 400 ± 210 nM, the EC50 (A/Roma-ISS/02/08 H1N1) is listed as 0.5 ± 0.01 nM and the EC50 (A/Parma/24/09 H1N1) is listed as 500 ± 0.46 nM.
